Pooled drug test results. Numbers come from NIAID ChemDB, via PubChem.

All rows: growth or infection tests; organism: HIV-1; measure: fold resistance

Blank or dashed fields: not listed here.

| smiles | strain or isolate | mutations | cells | method | result |
|---|---|---|---|---|---|
| Nc1ccn([C@@H]2CS[C@H](CO)O2)c(=O)n1 | Recombinant | RT-V75I F77L Q151M | PBMC | p24 | 0.04 |
| Cc1cc(O)cc(S(=O)(=O)c2cccc(N)c2C#N)c1 |  | RT-V108I | HeLa + HELA CD4+ | β-galactosidase | 1.9 |
| Cc1cn([C@H]2C[C@H](N=[N+]=[N-])[C@@H](CO)O2)c(=O)[nH]c1=O | Recombinant | RT-Q151M | PBMC | p24 | 0.02 |
| N#Cc1cc2[nH]c3ccccc3c2n(-c2ccc([N+](=O)[O-])cc2)c1=O | NNRTI-resistant | RT-K103N P225H | HeLa | luciferase | 0.3 |
| Nc1nc2c(ncn2[C@H]2CO[C@@H](CO)O2)c(=O)[nH]1 |  | RT-V106A G190A |  |  | ~0.25 |
| Cc1cn([C@H]2C[C@H](N=[N+]=[N-])[C@@H](CO)O2)c(=O)[nH]c1=O |  | RT-D67N K70R T215F K219Q | C8166 | p24 | 29 |
| C[C@H](Cn1cnc2c(N)ncnc21)OCP(=O)(O)O | A17 | RT-K103N Y181C | MT-2 | p24 | 0.235 |
| Cc1cn([C@H]2C=C[C@@H](CO)O2)c(=O)[nH]c1=O | 1617-1 NRTI resistant recombinant | RT-T69K K70G V75I F77L F116Y Q151M M184V | PBMC | RT activity | 11 |
| Cc1ccnc2c1NC(=O)c1cccnc1N2C1CC1 | HxB2D(RT-D67G) | RT-D67G | CBMC | RT activity | 0.406 |
| Cc1ccccc1Cc1cccc(C(=O)CC(=O)C(=O)O)c1 |  | INTG-S153Y N155S |  | p24 | 70 |
| O=c1[nH]cnc2c1ncn2[C@H]1CC[C@@H](CO)O1 | HXB2 | RT-V75T | CD4+HELA + HeLa | plaque count | 5.5 |
| Nc1nc(NC2CC2)c2ncn([C@H]3C=C[C@@H](CO)C3)c2n1 | 1617-1 NRTI resistant recombinant | RT-T69K K70G V75I F77L F116Y Q151M M184V | PBMC | RT activity | >100 |
| Nc1nc(NC2CC2)c2ncn([C@H]3C=C[C@@H](CO)C3)c2n1 | Site-directed mutant | RT-K65R | MT-2 | cytopathic effect / XTT | 2.9 |
| O=c1[nH]cnc2c1ncn2[C@H]1CC[C@@H](CO)O1 | 4755-5 NRTI resistant recombinant | RT-M41L E44D D67N T69D Y118I M184V L210W T215Y | PBMC | RT activity | 2.4 |
| O=c1[nH]cnc2c1ncn2[C@H]1CC[C@@H](CO)O1 | HxB2D(RT-D67G) | RT-D67G | CBMC | RT activity | 1.58 |
| O=C1O[C@H]2[C@@H]3OC(=O)c4cc(O)c(O)c(O)c4-c4c(cc(O)c(O)c4O)C(=O)OC[C@H]2O[C@@H](OC(=O)c2cc(O)c(O)c(O)c2)[C@@H]3OC(=O)c2cc(O)c(O)c3c2[C@@H]2C1=CC(=O)[C@](O)(O3)C2(O)O | NNRTI-resistant (RT L100I) ARP1016 | RT-L100I | MAGI |  | 2.19 |
| Cc1cn([C@H]2C=C[C@@H](CO)O2)c(=O)[nH]c1=O | Site-directed mutant | RT-K65R Y115F | MT-2 | cytopathic effect / XTT | 1.8 |
| Nc1ccn([C@H]2C=C[C@@H](CO)O2)c(=O)n1 | HXB2 | RT-V75T 184V | CD4+HELA + HeLa | plaque count | 2.22 |
| Nc1nc(=O)n([C@H]2CO[C@@H](CO)S2)cc1F | HXB2D (RT-M184V) | RT-M184V | CBMC | RT activity | 2.94 |
| Cc1cn([C@H]2C[C@H](N=[N+]=[N-])[C@@H](CO)O2)c(=O)[nH]c1=O | NRTI resistant | RT-M41L E44D D67N T69D V118I M184V L210W T215Y | HeLa | luciferase | 54.7 |
| Cc1cn([C@H]2C[C@H](N=[N+]=[N-])[C@@H](CO)O2)c(=O)[nH]c1=O |  | RT-P157S | CD4+HELA + HeLa | p24 | 0.375 |
| Cc1cc(Cl)cc(S(=O)(=O)c2cccc(N)c2C#N)c1 |  | RT-L100I K103N | HeLa + HELA CD4+ | β-galactosidase | 1780 |
| Nc1nc(=O)n([C@@H]2CO[C@H](CO)S2)cc1F | HXB2D(RT-M184I) | RT-M184I | CBMC | RT activity | 1.06 |
| Cc1cc(Br)cc(S(=O)(=O)c2cccc(N)c2C#N)c1 |  | RT-Y181C | HeLa + HELA CD4+ | β-galactosidase | 1270 |
| O=C(NCc1ccc(F)cc1)c1nc(N2CCCCS2(=O)=O)c2cccnc2c1O |  | INTG-T66I M154I |  | p24 | 1.6 |
| CCCCC/C=C\C/C=C\C/C=C\CCCCC(=O)O |  | RT-K103N V108I |  |  | 141 |
| CCc1cc(CCc2nc3ccccc3o2)c(=S)[nH]c1C | A17 | RT-K103N Y181C | H9 | p24 | 250 |
| O=C1Nc2ccc(Cl)cc2[C@@](C#CC2CC2)(C(F)(F)F)N1 |  | RT-L100I K103N |  |  | 550 |
| Cn1c2ccccc2c2c1cc(C#N)c(=O)n2-c1ccc([N+](=O)[O-])cc1 | NNRTI-resistant | RT-K103N Y188L | HeLa | luciferase | 0.3 |
| Cc1cn([C@H]2C[C@H](N=[N+]=[N-])[C@@H](CO)O2)c(=O)[nH]c1=O | 52534-2 NRTI resistant recombinant | RT-M41L T69ins L74V M184V L210W T215Y | PBMC | RT activity | 719 |
| O=c1[nH]cnc2c1ncn2[C@H]1CC[C@@H](CO)O1 |  | RT-M41L L74V V106A T215F | C8166 | p24 | 5 |
| CCc1cc(CCc2nc3c(Cl)ccc(Cl)c3o2)c(=S)[nH]c1C | A17 | RT-K103N Y181C | H9 | p24 | 8 |
| CC(C)(O)c1cccc(CN2C(=O)N(Cc3cccc(C(C)(C)O)c3)[C@H](Cc3ccccc3)[C@H](O)[C@@H](O)[C@H]2Cc2ccccc2)c1 | HXB2 | PR-V82F | MT-2/MT-4 + MT-2 | p24 | 3.8 |

Repeating the final 2 entries:

smiles | strain or isolate | mutations | cells | method | result
CCc1cc(CCc2nc3c(Cl)ccc(Cl)c3o2)c(=S)[nH]c1C | A17 | RT-K103N Y181C | H9 | p24 | 8
CC(C)(O)c1cccc(CN2C(=O)N(Cc3cccc(C(C)(C)O)c3)[C@H](Cc3ccccc3)[C@H](O)[C@@H](O)[C@H]2Cc2ccccc2)c1 | HXB2 | PR-V82F | MT-2/MT-4 + MT-2 | p24 | 3.8

Fold resistance: result on the changed form divided by that on wild type. Rows are shuffled and stem from different studies.